Results of unrelated studies side by side (data: NIAID ChemDB).

Common to all: tests in culture; organism: HIV-1; read by: p24; endpoint: EC50

An empty or dashed field is not shown.

smiles,mutations,cells,strain,result
Clc1cc(CN2CCCNCCNCCCNCC2)cc(Cl)n1,-,PBMC,R5 clinical isolate #15,5.7 µM
CCN1c2ncc(CCOc3ccc(C(=O)Nc4ccc[n+]([O-])c4)cc3C)cc2C(=O)Nc2c(C)ccnc21,RT-K103N Y181C,C8166,-,<0.01 µM
C/C=C/CSc1cc(NC(=S)c2ccsc2C)ccc1Cl,RT-K101E,CEM + CEM-SS,NL4-3,1 µM
O=C(O)c1cc(-n2cccc2)ccc1Cl,-,PBMC + MT-2,94UG103 X4R5 CLADE A,35.77 µM
CC(C)[C@H](NC(=O)OCc1ccccn1)C(=O)N[C@@H](Cc1ccccc1)[C@@H](O)C[C@H](Cc1ccccc1)NC(=O)OCc1cccnc1,PR-L10R L63P,MT-4,NL4-3,<0.8 µM
CC(C)C1=C2[C@H]3CC[C@@H]4[C@@]5(C)CC[C@H](OC(=O)C6C[C@@H](C(=O)O)C6(C)C)C(C)(C)[C@@H]5CC[C@@]4(C)[C@]3(C)CC[C@@]2(NC(=O)C(C)(C)NC(=O)c2cc(C(C)C)[nH]n2)CC1=O,V7A,MT-4,NL4-3,<0.01 µM
COc1ccc(S(=O)(=O)N(CC(C)C)CC(O)CCN2C[C@H]3CCCC[C@H]3C[C@H]2C(=O)NC(C)(C)C)cc1,-,CEM,IIIB,<1 µM
CCN1c2ncc(CCOc3ccc(-c4cocn4)cc3C)cc2C(=O)N(C)c2cccnc21,-,C8166,IIIB,<0.01 µM
Cn1cc(CN2CCn3c(nc(C(=O)NCc4ccc(F)cc4)c(O)c3=O)C2(C)C)nn1,-,MT-4,-,<1 µM
CCN1c2ncc(CCOc3ccc(C(=O)Nc4ccc(C(=O)O)cc4)cc3C)cc2C(=O)N(C)c2cccnc21,RT-K103N Y181C,C8166,-,0.01–0.05 µM
Cc1cc(CS(=O)(=O)N(CC2CCCC2)C[C@@H](O)CN(CCc2ccccc2)C(=O)c2ccccc2)no1,-,CEM,IIIB,<1 µM
CCN1c2ncc(CCOc3ccc(-c4ccc[n+]([O-])c4)cc3C)cc2C(=O)N(C)c2cccnc21,-,C8166,IIIB,<0.01 µM
COc1ccc(S(=O)(=O)N(CC(C)C)C(=O)C(=O)C(=O)[C@@H](Cc2ccccc2)NC(=O)OC(C)(C)C)cc1,-,CEM,IIIB,<1 µM
Cc1ccc(-c2ccc3c(c2)C=C(C(=O)Nc2ccc(C[N+](C)(C)C4CCOCC4)cc2)CCC3)cc1,-,PBMC,CM7 CLADE C,<1 µM
CN1CCn2c(nc(C(=O)NCc3ccc(F)cc3)c(O)c2=O)C(N(C)C(=O)C(=O)N2CCOCC2)C1,-,MT-4,-,<1 µM
CC(C)C1=C2[C@H]3CC[C@@H]4[C@@]5(C)CC[C@H](OC(=O)C6C[C@@H](C(=O)O)C6(C)C)C(C)(C)[C@@H]5CC[C@@]4(C)[C@]3(C)CC[C@@]2(NC(=O)C(C)(C)NC(=O)CN2CCS(=O)(=O)CC2)CC1=O,-,MT-4,NL4-3,<0.005 µM
Cc1cc(-c2ccc(CC(=O)O)cc2)ccc1OCCc1cnc2c(c1)C(=O)N(C)c1cccnc1N2,RT-K103N Y181C,C8166,-,>0.05 µM
COc1ccc(S(=O)(=O)N(CC(C)C)C(=O)C(=O)C(=O)[C@@H](Cc2ccccc2)NC(=O)OC2COCOC2)cc1,-,CEM,IIIB,<1 µM
CCN1c2ncc(CCOc3ccc(-c4ccc(C(=O)O)c[n+]4[O-])cc3C)cc2C(=O)N(C)c2cccnc21,-,C8166,IIIB,0.01–0.05 µM
Cc1cccnc1C(=O)NC(C)(C)C(=O)N[C@@]12CC[C@]3(C)[C@H](CC[C@@H]4[C@@]5(C)CC[C@H](OC(=O)C6C[C@@H](C(=O)O)C6(C)C)C(C)(C)[C@@H]5CC[C@]43C)C1=C(C(C)C)C(=O)C2,-,MT-4,NL4-3,<0.005 µM
CC(=O)N1Cn2c(nc(C(=O)NCc3ccc(F)cc3)c(O)c2=O)C1(C)C,-,MT-4,-,<50 µM
COc1ccc(S(=O)(=O)N(CC(C)C)C[C@@H](O)CCN(CC2CCCC2)S(=O)(=O)Cc2cc(C)on2)cc1,-,CEM,IIIB,<1 µM
CC1(C)c2nc(C(=O)NCc3ccc(F)cc3)c(O)c(=O)n2CCN1Cc1cn[nH]c1,-,MT-4,-,<1 µM
CC(C)CN(C[C@@H](O)[C@H](Cc1ccccc1)NC(=O)O[C@H]1CO[C@H]2OCC[C@H]21)S(=O)(=O)c1ccc2c(c1)OCO2,-,PHA-PBM,MDR/C,0.0027 µM
CN1CCn2c(nc(C(=O)NCc3ccc(F)cc3)c(O)c2=O)C(NCc2ccccc2)C1,-,MT-4,-,<50 µM
CC(C)C1=C2[C@H]3CC[C@@H]4[C@@]5(C)CC[C@H](OC(=O)C6C[C@@H](C(=O)O)C6(C)C)C(C)(C)[C@@H]5CC[C@@]4(C)[C@]3(C)CC[C@@]2(NC(=O)C(C)(C)NC(=O)c2ccc(CN3CCS(=O)(=O)CC3)cc2)CC1=O,-,MT-4,NL4-3,0.00501–0.01 µM
COc1ccc(S(=O)(=O)N(CC(O)CN(Cc2ccccc2)C(=O)O[C@@H]2CCOC2)CC2CCCC2)cc1,-,CEM,IIIB,<1 µM
CC(=O)N1CCn2c(nc(C(=O)NCc3ccc(F)cc3)c(O)c2=O)C1C,-,MT-4,-,<50 µM

The first 3 rows once more:

smiles	mutations	cells	strain	result
Clc1cc(CN2CCCNCCNCCCNCC2)cc(Cl)n1	-	PBMC	R5 clinical isolate #15	5.7 µM
CCN1c2ncc(CCOc3ccc(C(=O)Nc4ccc[n+]([O-])c4)cc3C)cc2C(=O)Nc2c(C)ccnc21	RT-K103N Y181C	C8166	-	<0.01 µM
C/C=C/CSc1cc(NC(=S)c2ccsc2C)ccc1Cl	RT-K101E	CEM + CEM-SS	NL4-3	1 µM

a–b is a range or a potency band. Lines come from different laboratories, so protocols vary. ECn is the concentration giving n% inhibition of infection, replication or growth.